Results of unrelated studies side by side (data: NIAID ChemDB).

Shared fields: tests in culture; organism: Semliki Forest virus; method: cytopathic effect; measure: EC50

ECn is the concentration giving n% inhibition of infection, replication or growth.

| structure | cell line | value |
|---|---|---|
| Nc1nc2c(nnn2C[C@H]2CC[C@@H](CO)C2)c(=O)[nH]1 | VERO | >200 µg/mL |
| Cc1cn([C@@H]2C[C@H](CO)[C@@H](O)C2)c(=O)[nH]c1=O | VERO | >100 µg/mL |
| Nc1ccn([C@@H]2C[C@H](CO)[C@@H](O)[C@H]2O)c(=O)n1 | VERO | 3 µg/mL |
| Cc1cn([C@H]2C[C@H](O)[C@@H](CO)[C@@H]2C)c(=O)[nH]c1=O | VERO | >400 µg/mL |
| NC(=O)c1ncn([C@@H]2O[C@H](CO)[C@@H](O)[C@H]2O)n1 | VERO | >400 µg/mL |
| Cc1cn([C@@H]2C[C@H](CO)[C@H](O)C2)c(=O)[nH]c1=O | VERO | >200 µg/mL |
| Nc1nc(Cl)c2nnn(C[C@H]3CC[C@@H](CO)C3)c2n1 | VERO | >200 µg/mL |
| NC(=O)c1ccnc([C@@H]2O[C@H](CO)[C@@H](O)[C@H]2O)c1 | VERO | >400 µg/mL |
| Cc1cn([C@H]2C[C@@H](CO)[C@H](O)C2)c(=O)[nH]c1=O | VERO | >400 µg/mL |
| Nc1nc2c(ncn2C[C@H]2CC[C@@H](CO)C2)c(=O)[nH]1 | VERO | >200 µg/mL |
| C#Cc1c(C(N)=O)ncn1[C@@H]1O[C@H](CO)[C@@H](O)[C@H]1O | VERO | 2 µg/mL |
| C[C@H](COc1cc(N)nc(N)n1)OCP(=O)(O)O | - | >180 µM |
| Nc1nc(N)c2ncn(C[C@H]3CC[C@@H](CO)C3)c2n1 | VERO | >200 µg/mL |
| NC(=O)c1ncn([C@@H]2O[C@H](CO)[C@@H](O)[C@H]2O)c1C#Cc1ccccc1 | VERO | >400 µg/mL |
| Nc1nccc2c1ncn2[C@@H]1C[C@H](CO)[C@@H](O)[C@H]1O | VERO | >400 µg/mL |
| C[C@H](Cn1cnc2c(N)ncnc21)OCP(=O)(O)O | - | >525 µM |
| Nc1nccc2c1ncn2[C@@H]1C[C@H](CO)[C@@H](O)[C@H]1O | VERO | >400 µg/mL |
| Nc1ncnc2c1ncn2[C@@H]1C=C[C@@H](O)[C@H]1O | VERO | >400 µg/mL |
| Nc1ncnc2c1ncn2C[C@H](O)CO | VERO | >400 µg/mL |
| Nc1nc(N)c2nnn(C[C@H]3CC[C@@H](CO)C3)c2n1 | VERO | >100 µg/mL |
| Nc1ncnc2c1ccn2[C@@H]1O[C@H](CO)[C@@H](O)[C@H]1O | VERO | >0.1 µg/mL |
| Nc1ncnc2c1ncn2[C@@H]1C=C(CO)[C@@H](O)[C@H]1O | VERO | >10 µg/mL |
| Nc1cc(OCCOCP(=O)(O)O)nc(N)n1 | - | >190 µM |

A second listing of 3 rows from above:

structure	cell line	value
Nc1ncnc2c1ncn2[C@@H]1C=C[C@@H](O)[C@H]1O	VERO	>400 µg/mL
Nc1nc(Cl)c2nnn(C[C@H]3CC[C@@H](CO)C3)c2n1	VERO	>200 µg/mL
C[C@H](COc1cc(N)nc(N)n1)OCP(=O)(O)O	-	>180 µM

Rows are shuffled and stem from different studies. An empty or dashed field is not shown.